The results in this text go back to ChEMBL document CHEMBL1828574, “Synthesis and structural studies of pentacycloundecane-based HIV-1 PR inhibitors: a hybrid 2D NMR and docking/QM/MM/MD approach” (Eur J Med Chem, 2011).

Protein sequences, listed by entry. Tags and fused reporters are not part of them.
UniProt Q72874, entry or part of it Q7K: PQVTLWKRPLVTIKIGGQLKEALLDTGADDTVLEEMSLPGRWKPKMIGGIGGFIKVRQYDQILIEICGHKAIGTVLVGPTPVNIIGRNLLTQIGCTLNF

The pIC50 is the negative decadic logarithm of the IC50, by convention in mol/L.

pIC50: −log10 of the molar value.

In the assay the target is Human immunodeficiency virus type 1 protease (Human immunodeficiency virus 1, UniProt Q72874, Q7K). Description: Inhibition of HIV1 subtype C protease Q7K mutant expressed in Escherichia coli BL21 (DE3) pLysS using Lys-Ala-Arg-Val-Nle-p-nitro-Phe-Glu-Ala-Nle-NH2 as substrate by spectrophotometry.

`Cc1cccc(C)c1OCC(=O)N[C@@H](Cc1ccccc1)[C@@H](O)C[C@H](Cc1ccccc1)NC(=O)[C@H](C(C)C)N1CCCNC1=O` [LOPINAVIR]: the pIC50 was 7.60.
